{
  "source": "patent US11331327B2",
  "about": "“Antibacterial use of halogenated salicylanilides” (UNION therapeutics A/S, priority 2014, dated 2022)",
  "data": [
    {"test_system": "S. aureus", "experiment": "Therapeutic index (LD50 rats / MIC100 S. aureus)", "design": "species or system Staphylococcus aureus", "conditions": "LD50 rats p.o. / MIC100 S. aureus", "values": [
      {"molecule": "Cc1cc(C(C#N)c2ccc(Cl)cc2)c(Cl)cc1NC(=O)c1cc(I)cc(I)c1O", "note": "(stereo not drawn) [Closantel, N-[5-chloro-4-[(4-chlorophenyl)cyanomethyl]-2-methylphenyl]-2-hydroxy-3,5-diiodobenzamide]", "Ther. Index (LD50, rats/MIC100, S. aureus)": "176,000"},
      {"molecule": "O=C(Nc1ccc([N+](=O)[O-])cc1Cl)c1cc(Cl)ccc1O", "note": "[Niclosamide, 5-chloro-N-(2-chloro-4-nitrophenyl)-2-hydroxybenz-amide]", "Ther. Index (LD50, rats/MIC100, S. aureus)": "12,500,000"},
      {"molecule": "O=C(Nc1ccc(Oc2ccc(Cl)cc2)c(Cl)c1)c1cc(I)cc(I)c1O", "note": "[Rafoxanide, 3′-chloro-4′-(p-chlorophenoxy)-3,5-diiodosalicylanilide]", "Ther. Index (LD50, rats/MIC100, S. aureus)": "1,875,000"}
    ]}
  ]
}
